{"source": "PubChem BioAssay AID1224833 (University of Georgia, 2016)", "test": "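Human genes whose knock-down alters rotavirus replication in monkey cells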 (primary screen)", "cells": "monkey MA104 kidney cells", "reagent": "siRNA pool against human genes, 50 nM", "duration": "48 h knock-down before infection; read 24 h after infection", "treatment": "infection with rotavirus strain RV3 two days after transfection; infectious dose for this stage not given", "measurement": "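z-score of rotavirus antigen signal per well, from a fluorescent immunoassay, relative to non-targeting control wells on the same plate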", "reading the numbers": "z-score vs non-targeting control: higher = more rotavirus replication than with non-targeting control", "call rule": "In these data the active calls have z-score vs non-targeting control at about -1 or lower, or at about 1 or higher", "meaning of the calls": "active = z-score beyond 1 either way; inactive = z-score within 1 of zero", "note": "This is one part, drawn at random, of about 12,000 reagents tested. In the full data, about 5,600 (46%) are marked active. 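Active calls cover z-scores past 1 in both directions, so they include lowered as well as raised rotavirus replication.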 A number with no mark means an inactive call. No sequences are given here."}
{"gene": "LRRC37A2 (leucine rich repeat containing 37 member A2)", "z-score vs non-targeting control": "-1.33 (active)"}
{"gene": "NUBPL (NUBP iron-sulfur cluster assembly factor, mitochondrial)", "z-score vs non-targeting control": "1.26 (active)"}
{"gene": "KIF3A (kinesin family member 3A)", "z-score vs non-targeting control": -0.532}
{"gene": "OSCAR (osteoclast associated Ig-like receptor)", "z-score vs non-targeting control": "-2.23 (active)"}
{"gene": "DROSHA (drosha ribonuclease III)", "z-score vs non-targeting control": "-1.34 (active)"}
{"gene": "SLC37A1", "z-score vs non-targeting control": -0.583}
{"gene": "DNAJC7 (DnaJ heat shock protein family (Hsp40) member C7)", "z-score vs non-targeting control": "-1.66 (active)"}
{"gene": "ARSL (arylsulfatase L)", "z-score vs non-targeting control": "1.03 (active)"}
{"gene": "DTNBP1 (dystrobrevin binding protein 1)", "z-score vs non-targeting control": "-2.43 (active)"}
{"gene": "ZNF445 (zinc finger protein 445)", "z-score vs non-targeting control": -0.887}
{"gene": "SLC30A9", "z-score vs non-targeting control": 0.537}
{"gene": "PCDHGA6 (protocadherin gamma subfamily A, 6)", "z-score vs non-targeting control": "-1.07 (active)"}
{"gene": "POLR1H (RNA polymerase I subunit H)", "z-score vs non-targeting control": 0.765}
{"gene": "ARHGEF39 (Rho guanine nucleotide exchange factor 39)", "z-score vs non-targeting control": -0.367}
{"gene": "CLMN (calmin)", "z-score vs non-targeting control": -0.044}
{"gene": "FAM47B (family with sequence similarity 47 member B)", "z-score vs non-targeting control": "-1.73 (active)"}
{"gene": "EEF1AKMT1 (EEF1A lysine methyltransferase 1)", "z-score vs non-targeting control": "1.23 (active)"}
{"gene": "MRPL3 (mitochondrial ribosomal protein L3)", "z-score vs non-targeting control": -0.765}
{"gene": "IPO9 (importin 9)", "z-score vs non-targeting control": -0.617}
{"gene": "SYT4 (synaptotagmin 4)", "z-score vs non-targeting control": "-1.08 (active)"}
{"gene": "RUVBL2 (RuvB like AAA ATPase 2)", "z-score vs non-targeting control": "1.03 (active)"}
{"gene": "TLDC2 (TBC/LysM-associated domain containing 2)", "z-score vs non-targeting control": "-1.02 (active)"}
{"gene": "ZNF600 (zinc finger protein 600)", "z-score vs non-targeting control": -0.892}
{"gene": "AP1M1 (adaptor related protein complex 1 subunit mu 1)", "z-score vs non-targeting control": 0.17}
{"gene": "FGF12 (fibroblast growth factor 12)", "z-score vs non-targeting control": 0.896}
{"gene": "FNDC3A (fibronectin type III domain containing 3A)", "z-score vs non-targeting control": "1.01 (active)"}
{"gene": "RAB42 (RAB42, member RAS oncogene family)", "z-score vs non-targeting control": "-1.72 (active)"}
{"gene": "SRPRA (SRP receptor subunit alpha)", "z-score vs non-targeting control": "1.97 (active)"}
{"gene": "GNAQ (G protein subunit alpha q)", "z-score vs non-targeting control": -0.0944}
{"gene": "OR4X1 (olfactory receptor family 4 subfamily X member 1)", "z-score vs non-targeting control": -0.45}
{"gene": "AHSP (alpha hemoglobin stabilizing protein)", "z-score vs non-targeting control": 0.185}
{"gene": "KDM6B (lysine demethylase 6B)", "z-score vs non-targeting control": 0.686}
{"gene": "GATAD2A (GATA zinc finger domain containing 2A)", "z-score vs non-targeting control": -0.169}
{"gene": "TCN1 (transcobalamin 1)", "z-score vs non-targeting control": -0.415}
{"gene": "ATP6V0A2 (ATPase H+ transporting V0 subunit a2)", "z-score vs non-targeting control": 0.229}
{"gene": "ANO7 (anoctamin 7)", "z-score vs non-targeting control": 0.464}
{"gene": "SLC9A9", "z-score vs non-targeting control": -0.554}
{"gene": "IL10RB (interleukin 10 receptor subunit beta)", "z-score vs non-targeting control": -0.381}
{"gene": "TMEM106C (transmembrane protein 106C)", "z-score vs non-targeting control": "1.13 (active)"}
{"gene": "C1QTNF6 (C1q and TNF related 6)", "z-score vs non-targeting control": "-2.52 (active)"}
{"gene": "PEMT (phosphatidylethanolamine N-methyltransferase)", "z-score vs non-targeting control": "-1.42 (active)"}
{"gene": "STX8 (syntaxin 8)", "z-score vs non-targeting control": -0.941}
{"gene": "LTBP4 (latent transforming growth factor beta binding protein 4)", "z-score vs non-targeting control": -0.0721}
{"gene": "NIT2 (nitrilase family member 2)", "z-score vs non-targeting control": "-1.97 (active)"}
{"gene": "SIGLEC8 (sialic acid binding Ig like lectin 8)", "z-score vs non-targeting control": 0.358}
{"gene": "DDX27 (DEAD-box helicase 27)", "z-score vs non-targeting control": -0.67}
{"gene": "GJB5 (gap junction protein beta 5)", "z-score vs non-targeting control": "-2 (active)"}
{"gene": "MED14 (mediator complex subunit 14)", "z-score vs non-targeting control": "1.63 (active)"}
{"gene": "BIN1 (bridging integrator 1)", "z-score vs non-targeting control": 0.313}
{"gene": "VPS52 (VPS52 subunit of GARP complex)", "z-score vs non-targeting control": 0.305}
{"gene": "GDAP1 (ganglioside induced differentiation associated protein 1)", "z-score vs non-targeting control": "-1.19 (active)"}
{"gene": "KAAG1 (kidney associated DCDC2 antisense RNA 1)", "z-score vs non-targeting control": -0.178}
{"gene": "FGF5 (fibroblast growth factor 5)", "z-score vs non-targeting control": -0.515}
{"gene": "UNG (uracil DNA glycosylase)", "z-score vs non-targeting control": 0.328}
{"gene": "CRIP2 (cysteine rich protein 2)", "z-score vs non-targeting control": 0.808}
{"gene": "ZNF548 (zinc finger protein 548)", "z-score vs non-targeting control": -0.559}
{"gene": "SLC16A12", "z-score vs non-targeting control": -0.457}
{"gene": "APBB3 (amyloid beta precursor protein binding family B member 3)", "z-score vs non-targeting control": "-2.8 (active)"}
{"gene": "CELA3A (chymotrypsin like elastase 3A)", "z-score vs non-targeting control": "1.88 (active)"}
{"gene": "SLC7A4", "z-score vs non-targeting control": -0.806}

Laid out differently: entries from further up
gene,z-score vs non-targeting control
PEMT (phosphatidylethanolamine N-methyltransferase),-1.42 (active)
STX8 (syntaxin 8),-0.941
LTBP4 (latent transforming growth factor beta binding protein 4),-0.0721
NIT2 (nitrilase family member 2),-1.97 (active)
SIGLEC8 (sialic acid binding Ig like lectin 8),0.358
DDX27 (DEAD-box helicase 27),-0.67
GJB5 (gap junction protein beta 5),-2 (active)
MED14 (mediator complex subunit 14),1.63 (active)
BIN1 (bridging integrator 1),0.313
VPS52 (VPS52 subunit of GARP complex),0.305
